Anti-infective test results gathered from many reports (values: NIAID ChemDB through PubChem).

Percent inhibition refers to the dose given; in toxicity tests it is the harm to the cells.

| SMILES | organism | method | strain or isolate | cells | measure | test | target | dose | value |
|---|---|---|---|---|---|---|---|---|---|
| c1ccc(C2CCN(c3cncc(-c4ccsc4)n3)CC2)cc1 | Cytomegalovirus | - | - | - | inhibition | target | UL97 kinase | 1 µM | <50% |
| O=S(=O)([O-])c1ccc2c(NS(=O)(=O)c3ccccc3)cc(S(=O)(=O)[O-])cc2c1 | Herpes simplex virus | cytopathic effect | - | Human amnion AV3 cells | inhibition | culture | - | 50 µg/mL | 0% |
| O=C(NC(Cc1c[nH]c2ccccc12)C(=O)O)c1cnn2c(C3CCCCC3)c(-c3ccc(F)c(F)c3)cnc12 | Hepatitis C virus | - | - | - | IC50 | target | RNA-dependent RNA polymerase | - | <1 µM |
| CC(=O)N[C@H]1[C@H]([C@H](O)[C@H](O)CO)OC(C(=O)O)=C[C@@H]1N=C(N)N | Influenza A virus | - | H1N1 A/PR/8/34 | MDCK | EC50 | culture | - | - | 0.42 µM |
| c1ccc(C2CCN(c3cncc(-c4cccc5ccccc45)n3)CC2)cc1 | Cytomegalovirus | - | - | - | inhibition | target | UL97 kinase | 10 µM | >15% |
| CCOC(=O)c1cc2nc(-c3ccc(F)cc3)cc(-c3ccccc3Cl)n2n1 | Hepatitis C virus | - | - | - | IC50 | target | RNA-dependent RNA polymerase | - | >10 µM |
| COc1cc(-c2ccc(N=Nc3ccc4c(S(=O)(=O)O)cc(S(=O)(=O)O)c(N)c4c3O)c(OC)c2)ccc1N=Nc1ccc2c(S(=O)(=O)O)cc(S(=O)(=O)O)c(N)c2c1O | Herpes simplex virus | cytopathic effect | - | Human conjunctiva cells | inhibition | culture | - | 50 µg/mL | 100% |
| CCOC(=O)c1c(C)nc(OCCCNc2ccnc3cc(Cl)ccc23)nc1-c1ccccc1 | Cryptococcus gattii | - | 135L/03 | - | MIC99 | culture | - | - | 8 µg/mL |
| O=S(=O)(O)c1ccc2ccc(S(=O)(=O)O)cc2c1 | Rhinovirus | cytopathic effect | - | Human amnion AV3 cells | inhibition | culture | - | 10 µg/mL | 10% |
| COc1ccccc1-c1c(O)c2cccnc2n(O)c1=O | - | - | - | HeLa | CC50 | toxicity | - | - | <100 µM |
| Cc1cc(-c2ccc(N=Nc3c(N)c(S(=O)(=O)O)cc4cc(S(=O)(=O)O)ccc34)c(C)c2)ccc1N=Nc1c(N)ccc2cc(S(=O)(=O)O)ccc12 | Adenovirus | cytopathic effect | TYPE 3 | Human embryonic lung cells | inhibition | culture | - | 10 µg/mL | 0% |
| O=C(O)c1cnn2c(C3CCCCC3)c(-c3ccc(-c4ccoc4)cc3)cnc12 | Hepatitis C virus | - | - | - | IC50 | target | RNA-dependent RNA polymerase | - | 1–10 µM |
| O=C(Nc1cccnc1)c1c(O)c2cccnc2n(O)c1=O | - | - | - | HeLa | CC50 | toxicity | - | - | <100 µM |
| CC(C)COc1cccc(-c2ccc(C(=O)N(Cc3cccc(OCCCCCC(=O)OC(=O)O)c3)C(C)C)cc2)c1 | - | - | - | HEK 293 | CC50 | toxicity | - | - | >20 µM |
| O=[N+]([O-])c1cc([N+](=O)[O-])c2ccc(S(=O)(=O)O)cc2c1O | Adenovirus | cytopathic effect | TYPE 3 | Human embryonic lung cells | inhibition | culture | - | 50 µg/mL | 10% |
| CCOC(=O)CCCCCOc1cccc(CN(C(=O)c2ccc(-c3cccc(O)c3)cc2)C(C)C)c1 | - | - | - | BJ | CC50 | toxicity | - | - | >20 µM |
| CN(Cc1ccc2nc(N)nc(N)c2n1)c1ccc(C(=O)NC(CO)CCO)cc1 | Cryptosporidium parvum | - | TYPE 2 | - | IC50 | target | Dihydrofolate reductase | - | 2.4 µM |
| CC(C)N(Cc1cccc(OCCCCCC(=O)OC(=O)O)c1)C(=O)c1ccccc1 | - | - | - | HEK 293 | CC50 | toxicity | - | - | >20 µM |
| Clc1cccc(N2CCN(c3cncc(-c4ccccc4)n3)CC2)c1 | Cytomegalovirus | - | - | - | inhibition | target | UL97 kinase | 1 µM | <50% |
| Nc1nc(N)c2nc(CN3c4ccccc4C=Cc4ccccc43)cnc2n1 | Cryptosporidium parvum | - | TYPE 1 | - | IC50 | target | Dihydrofolate reductase | - | 2.1 µM |
| COc1ccc(N2CCN(c3cncc(-c4ccccc4Oc4ccccc4)n3)CC2)cc1OC | Cytomegalovirus | - | - | - | IC50 | target | UL97 kinase | - | <100 µM |
| Cc1nc(NCCCCNc2ccnc3cc(Cl)ccc23)nc(-c2ccccc2[N+](=O)[O-])c1C(=O)OC(C)C | Cryptococcus gattii | - | L-28/02 | - | MIC99 | culture | - | - | 8 µg/mL |
| CC(=O)c1ccc(N2CCN(c3cncc(-c4cccc5ccccc45)n3)CC2)cc1 | Cytomegalovirus | - | - | - | IC50 | target | UL97 kinase | - | <100 µM |
| CCOC(=O)c1ccc(OCCC2CCN(c3ccc(C)nn3)CC2)cc1 | Rhinovirus | neutral red | 5986 (ICAM-1 receptor group 18) | KB | EC50 | culture | - | - | 0.298 µM |
| CSc1ccccc1-c1cncc(N2CCN(c3ccncc3)CC2)n1 | Cytomegalovirus | - | - | - | inhibition | target | UL97 kinase | 10 µM | >15% |
| Oc1cccc(C=Nc2ccccc2O)c1 | Cryptococcus gattii | - | ATCC 24065 | - | MIC99 | culture | - | - | 5.7 µg/mL |
| Nc1nc(N)c2c(n1)CCC(Cc1cccc(C(F)(F)F)c1)C2 | Cryptosporidium parvum | - | TYPE 2 | - | IC50 | target | Dihydrofolate reductase | - | 0.45 µM |
| CCOC(=O)CCCCCOc1cccc(CN(C(=O)c2ccc(-c3ccsc3)cc2)C(C)C)c1 | - | - | - | HEK 293 | CC50 | toxicity | - | - | >20 µM |
| O=c1cc(N2CCN(c3ccccc3)CC2)c2cccnc2n1O | - | - | - | HeLa | CC50 | toxicity | - | - | <100 µM |
| O=S(=O)([O-])c1ccc2c(S(=O)(=O)[O-])cc(S(=O)(=O)[O-])cc2c1 | Adenovirus | cytopathic effect | TYPE 3 | Human amnion AV3 cells | inhibition | culture | - | 5 µg/mL | 0% |
| CCOC(=O)CCCCCOc1cccc(CN(C(=O)c2ccc(-c3cccc(NC=O)c3)cc2)C(C)C)c1 | - | - | - | RAJI | CC50 | toxicity | - | - | >20 µM |
| Cc1cc(CCCOc2c(C)cc(-c3noc(C(F)(F)F)n3)cc2C)on1 | Rhinovirus | cytopathic effect / visual reading | Isolate 39 | OHIO HELA-I | EC50 | culture | - | - | >10 µg/mL |
| O=C(O)c1cc(-c2ccco2)nc2ccccc12 | - | - | - | HepG2 | CC50 | toxicity | - | - | >20 µM |
| Cc1c(-c2ccc(Cl)c(Cl)c2)sc2nc(N)nc(N)c12 | Cryptosporidium parvum | - | TYPE 1 | - | IC50 | target | Dihydrofolate reductase | - | >10 µM |
| COc1ccc(C(O)C(Br)N=[N+]=[N-])cc1OC | - | - | - | BJ | CC50 | toxicity | - | - | <13.5 µM |
| CCOC(=O)c1c(C)nc(NCCCCNc2ccnc3cc(Cl)ccc23)nc1-c1ccc(F)cc1 | Cryptococcus gattii | - | 23/10993 | - | MIC99 | culture | - | - | 5.7 µg/mL |
| O=C(O)c1cnn2c(C3CCCCC3)c(-c3ccccc3)cnc12 | Hepatitis C virus | - | - | - | IC50 | target | RNA-dependent RNA polymerase | - | <1 µM |
| Oc1ccccc1N=Cc1cccc(O)c1O | Cryptococcus gattii | - | LMM 818 | - | MIC99 | culture | - | - | 4 µg/mL |
| COc1cc(NCc2cccc3nc(N)nc(N)c23)cc(OC)c1OC | Cryptosporidium parvum | - | TYPE 2 | - | IC50 | target | Dihydrofolate reductase | - | >10 µM |
| CCOC(=O)CCCCCOc1cccc(CN(C(=O)c2ccc(-c3cccc(Cl)c3)cc2)C(C)C)c1 | - | - | - | RAJI | CC50 | toxicity | - | - | >13.5 µM |
| O=C(O)c1c[nH]n2c(=O)c(CC3CCCCC3)c(-c3ccc(OCc4ccccc4)cc3)nc12 | Hepatitis C virus | - | - | - | IC50 | target | RNA-dependent RNA polymerase | - | 1–10 µM |
| C=CCc1ccc(O)c(OC)c1 | Candida albicans | turbidity | 2781 | - | MIC90 | culture | - | - | 485 µg/mL |
| CCc1cnc2c(c1)c(O)c(-c1ccccc1)c(=O)n2O | - | - | - | HeLa | CC50 | toxicity | - | - | <100 µM |
| O=C(NC(Cc1c[nH]c2ccccc12)C(=O)O)c1cnn2c(C3CCCCC3)c(-c3ccoc3)cnc12 | Hepatitis C virus | - | - | - | IC50 | target | RNA-dependent RNA polymerase | - | <1 µM |
| Fc1ccc(N2CCCCC2)c(NC(=S)c2ccncc2)c1 | - | kinase activity | - | - | inhibition | host protein | Pim-3 | 10 µM | 27% |
| Nc1c(S(=O)(=O)O)cc2cc(S(=O)(=O)O)cc(O)c2c1O | Adenovirus | cytopathic effect | TYPE 3 | Human embryonic lung cells | inhibition | culture | - | 10 µg/mL | 60% |
| Oc1cccc(-c2cnc3c(Br)cnn3c2C2CCCCC2)c1 | Hepatitis C virus | - | - | - | IC50 | target | RNA-dependent RNA polymerase | - | >10 µM |
| O=C(Nc1ccc2cc(S(=O)(=O)[O-])cc(S(=O)(=O)[O-])c2c1)c1ccccc1 | Adenovirus | cytopathic effect | TYPE 3 | Human embryonic lung cells | inhibition | culture | - | 10 µg/mL | 0% |
| COc1ccc(OC)c(NCc2ccc3nc(N)nc(N)c3c2Cl)c1 | Cryptosporidium parvum | - | TYPE 1 | - | IC50 | target | Dihydrofolate reductase | - | 0.0065 µM |
| CCOC(=O)c1c(C)nc(NCCCCNc2ccnc3cc(Cl)ccc23)nc1-c1ccccc1[N+](=O)[O-] | Cryptococcus neoformans | - | LMM 820 | - | MIC99 | culture | - | - | 8 µg/mL |
| CN(Cc1ccc2nc(N)nc(N)c2n1)c1ccc(C(=O)NC23CC4CC(CC(C4)C2)C3)cc1 | Cryptosporidium parvum | - | TYPE 1 | - | IC50 | target | Dihydrofolate reductase | - | 1.8 µM |
| COc1cccc(-c2cc(-c3ccc(Oc4ccccc4)cc3)n3nc(C(=O)O)cc3n2)c1 | Hepatitis C virus | - | - | - | IC50 | target | RNA-dependent RNA polymerase | - | >10 µM |
| Nc1nc(N)c2c(n1)CCC(c1ccccc1)C2 | Cryptosporidium parvum | - | TYPE 2 | - | IC50 | target | Dihydrofolate reductase | - | >10 µM |
| CS(=O)(=O)c1ccc(COc2ccc(-c3cnc4c(-c5nn[nH]n5)cnn4c3C3CCCCC3)cc2)cc1 | Hepatitis C virus | - | - | - | IC50 | target | RNA-dependent RNA polymerase | - | 1–10 µM |

The last 4 rows once more:

CN(Cc1ccc2nc(N)nc(N)c2n1)c1ccc(C(=O)NC23CC4CC(CC(C4)C2)C3)cc1 ; organism: Cryptosporidium parvum ; strain or isolate: TYPE 1 ; measure: IC50 ; test: target ; target: Dihydrofolate reductase ; value: 1.8 µM
COc1cccc(-c2cc(-c3ccc(Oc4ccccc4)cc3)n3nc(C(=O)O)cc3n2)c1 ; organism: Hepatitis C virus ; measure: IC50 ; test: target ; target: RNA-dependent RNA polymerase ; value: >10 µM
Nc1nc(N)c2c(n1)CCC(c1ccccc1)C2 ; organism: Cryptosporidium parvum ; strain or isolate: TYPE 2 ; measure: IC50 ; test: target ; target: Dihydrofolate reductase ; value: >10 µM
CS(=O)(=O)c1ccc(COc2ccc(-c3cnc4c(-c5nn[nH]n5)cnn4c3C3CCCCC3)cc2)cc1 ; organism: Hepatitis C virus ; measure: IC50 ; test: target ; target: RNA-dependent RNA polymerase ; value: 1–10 µM

A number after MIC or MFC names an inhibition level or a share of isolates. Lines come from different laboratories, so protocols vary. ICn is the concentration giving n% inhibition. Blank or dashed fields: not listed here. a–b is a range or a potency band. CCn: concentration that lowers growth or viability of the cells by n%. ECn is the concentration giving n% inhibition of infection, replication or growth.